## Screening data, single-dose tests

Results are given as percent effect. The record does not define 0% and 100%; most values in the screen are far below 50% and negative numbers occur (in some assays of this library far below -100). The entries come from a sample that favours strong results. Two or more numbers in one place are separate tests of the same structure; such repeats can differ widely. A dash means the value is not listed here; it may have been measured.

Mtb glucose medium: 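Whole-cell growth test on Mycobacterium tuberculosis, read after 3 days in glucose-containing 7H9 medium; the read-out is not stated. Tested at 50 µM. Direction is inferred from retests: higher values go with more growth inhibition. Size under these conditions: about 69,000 compounds, about 760 of them at 50% or above in at least one test.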
Mtb cholesterol medium: 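Growth of Mycobacterium tuberculosis over 4 days (cholesterol / DPPC medium with tyloxapol); the read-out is not stated. Concentration: 50 µM. The record gives no direction; compounds that gave an IC50 in retests scored well above the rest, so higher reads as more growth inhibition. About 69,000 compounds were tested under these conditions; 0.54% (about 370) showed 50% or more at least once.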

Result for Cc1ccccc1OCC(O)CN1CCC(c2ccn[nH]2)CC1 (centres undefined) was Mtb glucose medium: -7.618%. Result for O=C(NCC1CC1)C1CCCN(c2cccc(C(F)(F)F)n2)C1 (centres undefined) was Mtb glucose medium: 54.05%. Result for CCn1cc(CNCCNc2ncc(Cl)cc2Cl)cn1 was Mtb glucose medium: -40.14%. For CC(C(=O)N1CCN(c2cnccn2)CC1)n1cncn1 (centres undefined) the result was Mtb glucose medium: -18.6%. For CC(=O)Nc1cc2c(cc1C)OCO2 the result was Mtb glucose medium: -3.817% and -31.09%. Cc1cc(C)n(C2CCCN(C(=O)Cc3csc(C)n3)C2)n1 (centres undefined) gave Mtb glucose medium: -7.748%. With Cc1nc(C2CCCN2Cc2cc(Cl)c3c(c2)OCCO3)no1 (centres undefined) the screen gave Mtb glucose medium: 55.44%; Mtb cholesterol medium: 57.08%.

CC(C)c1ncc(C(=O)N(C)c2ccc(Br)cn2)s1 gave Mtb glucose medium: 7.44% and 32.82%; Mtb cholesterol medium: 0.2385%. Cc1cc(CN(C)C2CCCN(Cc3noc(C)n3)C2)no1 (centres undefined) read Mtb glucose medium: -36.48%. Cc1cc(C)n(CC(=O)NCc2ccccn2)n1 read Mtb glucose medium: 0.1704% and -37.15%. CN(Cc1cnccn1)S(=O)(=O)c1ccc(C(F)(F)F)nc1 read Mtb glucose medium: -9.32%; Mtb cholesterol medium: 103.5%. For COc1ccc2cc(C(=O)NCCNc3ccc(C)nn3)[nH]c2c1 the result was Mtb glucose medium: -17.69%. Result for CC1CCN(C(=O)C(C)Oc2ccc3c(c2)OCO3)CC1 (centres undefined) was Mtb glucose medium: 60.72%. Cc1nc(-n2nc(C3CC3)cc2NC(=O)C(C)C)[nH]c(=O)c1C read Mtb glucose medium: 61.68%.

With COCC(=O)N(C)Cc1ccc(Cl)c(Cl)c1 the screen gave Mtb glucose medium: 6.53% and -1.421%; Mtb cholesterol medium: 6.161%. With O=C(c1cccs1)N1CCC2(CC1)CN(c1cncnc1)C(=O)CO2 the screen gave Mtb cholesterol medium: 4.023% and -13.22%. With Cc1cccc(NC(=O)c2csc(NCC(C)C)n2)n1 the screen gave Mtb glucose medium: 1.944%. With O=C(CCc1ccccn1)N1CCCC1 the screen gave Mtb glucose medium: -6.918%; Mtb cholesterol medium: -7.502%. Cc1cccc(-c2noc(CN3CC(n4cc(C)cn4)C3)n2)c1 gave Mtb glucose medium: 26.09%; Mtb cholesterol medium: 17.6%. Result for CCNc1ncc(C(=O)N2CCC(c3ccccc3C(=O)O)C2)cn1 (centres undefined) was Mtb glucose medium: 120.3% and -0.4713%. CC[C@@H](CO)Nc1cc(-c2cn[nH]c2)ncn1 read Mtb glucose medium: -8.733%.

For CN(C)C(=O)c1cccc(CNc2ccc(C#N)cn2)c1 the result was Mtb glucose medium: 0.8814%; Mtb cholesterol medium: -16.43%. Result for Cl.NC(=O)COc1ccc(CNCc2ccc(F)c(F)c2)cc1 was Mtb glucose medium: -1.154% and -2.85%. Result for COc1cccc(CNc2cnn(C)c(=O)c2Cl)c1 was Mtb cholesterol medium: -20.04%. With O=C(O)C(=O)O.c1csc(CN2CC(c3nc(-c4cnccn4)no3)C2)c1 the screen gave Mtb glucose medium: 119.2% and 11.67%.

Once more, the final 3:

| SMILES | Mtb glucose medium | Mtb cholesterol medium |
|---|---|---|
| `Cl.NC(=O)COc1ccc(CNCc2ccc(F)c(F)c2)cc1` | -1.154 and -2.85 | - |
| `COc1cccc(CNc2cnn(C)c(=O)c2Cl)c1` | - | -20.04 |
| `O=C(O)C(=O)O.c1csc(CN2CC(c3nc(-c4cnccn4)no3)C2)c1` | 119.2 and 11.67 | - |

From ChEMBL document CHEMBL3988442, “University of Dundee, Small-Polar-MMV Screening Library” (2021).